Measured values from several laboratories, pooled; numbers as filed in NIAID ChemDB.

All rows: growth or infection tests; agent: Mycobacterium avium intracellulare

MIC50, MIC90 and the like: level of inhibition, or share of isolates inhibited. Rows are shuffled and stem from different studies.

{"SMILES": "CC[C@H]1OC(=O)[C@H](C)[C@@H](O[C@H]2C[C@@](C)(OC)[C@@H](O)[C@H](C)O2)[C@H](C)[C@@H](O[C@@H]2O[C@H](C)C[C@H](N(C)C)[C@H]2O)[C@](C)(OC)C[C@@H](C)C(=O)[C@H](C)[C@@H](O)[C@]1(C)O", "strain": "20066 (clarithromycin-susceptible)", "endpoint": "MIC", "value": "3.13 µg/mL"}
{"SMILES": "CCCCCCCCCCCCCCN(C)C(=O)O[C@H]1C(O[C@@H]2[C@@H](C)[C@H](O[C@H]3C[C@@](C)(OC)[C@@H](OC(C)=O)[C@H](C)O3)[C@@H](C)C(=O)O[C@H](CC)[C@@](C)(O)[C@H](O)[C@@H](C)/C(=N/OCCCC3CCCCC3)[C@H](C)CC2(C)O)O[C@H](C)C[C@@H]1N(C)C", "strain": "20067", "endpoint": "MIC", "value": "0.2 µg/mL"}
{"SMILES": "OCCN1CCN(CC/C=C2\\c3ccccc3Sc3ccc(C(F)(F)F)cc32)CC1", "strain": "E 48067", "endpoint": "MIC", "value": "12.5 µg/mL"}
{"SMILES": "CCCCO/N=C1\\[C@H](C)CC(C)(O)[C@H](O[C@@H]2O[C@H](C)C[C@H](N(C)C)[C@H]2O)[C@@H](C)[C@H](OC2C[C@@](C)(OC)[C@@H](O)[C@H](C)O2)[C@@H](C)C(=O)O[C@H](CC)[C@@](C)(O)[C@H](O)[C@H]1C", "strain": "20066", "endpoint": "MIC", "value": "1.56 µg/mL"}
{"SMILES": "CCNNC(=O)O[C@H]1[C@H](O[C@@H]2[C@@H](C)[C@H](O[C@H]3C[C@@](C)(OC)[C@@H](OC(C)=O)[C@H](C)O3)[C@@H](C)C(=O)O[C@H](CC)[C@@](C)(O)[C@H](O)[C@@H](C)/C(=N/OCCCC3CCCCC3)[C@H](C)CC2(C)O)O[C@H](C)C[C@@H]1N(C)C", "strain": "20066 (clarithromycin-susceptible)", "endpoint": "MIC", "value": "0.78 µg/mL"}
{"SMILES": "Clc1ccc2c(c1)nc1cc(Nc3ccccc3)c(=NC3CCCCC3)cc-1n2-c1ccccc1", "strain": "TB60", "endpoint": "MIC", "value": "1 µg/mL"}
{"SMILES": "CC[C@H]1OC(=O)[C@H](C)[C@@H](OC2C[C@@](C)(OC)[C@@H](O)[C@H](C)O2)[C@H](C)[C@@H](O[C@@H]2O[C@H](C)C[C@H](N(C)C)[C@H]2O)C(C)(O)C[C@@H](C)/C(=N\\OCCc2cccs2)[C@H](C)[C@@H](O)[C@]1(C)O", "strain": "20066", "endpoint": "MIC", "value": "3.13 µg/mL"}
{"SMILES": "CC[C@H]1OC(=O)[C@H](C)[C@@H](OC2C[C@@](C)(OC)[C@@H](OC(=O)Cc3ccccc3)[C@H](C)O2)[C@H](C)[C@@H](O[C@@H]2O[C@H](C)C[C@H](N(C)C)[C@H]2O)C(C)(O)C[C@@H](C)/C(=N\\OCCCOc2ccccc2)[C@H](C)[C@@H](O)[C@]1(C)O", "strain": "20066 (clarithromycin-susceptible)", "endpoint": "MIC", "value": "0.78 µg/mL"}
{"SMILES": "C#CCNC(=O)O[C@H]1C(O[C@@H]2[C@@H](C)[C@H](O[C@H]3C[C@@](C)(OC)[C@@H](OC(C)=O)[C@H](C)O3)[C@@H](C)C(=O)O[C@H](CC)[C@@](C)(O)[C@H](O)[C@@H](C)/C(=N/OCCCC3CCCCC3)[C@H](C)CC2(C)O)O[C@H](C)C[C@@H]1N(C)C", "strain": "20067", "endpoint": "MIC", "value": "0.2 µg/mL"}
{"SMILES": "CO[C@H]1/C=C/O[C@@]2(C)Oc3c(C)c(O)c4c(O)c(c(/C=N/N5CCN(C6CCCC6)CC5)c(O)c4c3C2=O)NC(=O)/C(C)=C\\C=C\\[C@H](C)[C@H](O)[C@@H](C)[C@@H](O)[C@@H](C)[C@H](OC(C)=O)[C@@H]1C", "strain": "21 strains", "endpoint": "MIC90", "value": "2 µg/mL"}
{"SMILES": "CCCCCCCCO/N=C1\\[C@H](C)CC(C)(O)[C@H](O[C@@H]2O[C@H](C)C[C@H](N(C)C)[C@H]2O)[C@@H](C)[C@H](OC2C[C@@](C)(OC)[C@@H](O)[C@H](C)O2)[C@@H](C)C(=O)O[C@H](CC)[C@@](C)(O)[C@H](O)[C@H]1C", "strain": "20066", "endpoint": "MIC", "value": "6.25 µg/mL"}
{"SMILES": "CC[C@H]1OC(=O)[C@H](C)[C@@H](O[C@H]2C[C@@](C)(OC)[C@@H](OC(C)=O)[C@H](C)O2)[C@H](C)[C@@H](OC2O[C@H](C)C[C@H](N(C)C)[C@H]2OC(=O)NCC(=O)NC)C(C)(O)C[C@@H](C)/C(=N\\OCCCC2CCCCC2)[C@H](C)[C@@H](O)[C@]1(C)O", "strain": "20075", "endpoint": "MIC", "value": "1.56 µg/mL"}
{"SMILES": "COc1ccc2c(c1)N(C[C@H](C)CN(C)C)c1ccccc1S2", "strain": "R 7313", "endpoint": "MIC", "value": "25 µg/mL"}
{"SMILES": "CC(=O)NC[C@H]1CN(c2ccc(N3CCN(c4ccc([N+](=O)[O-])s4)CC3)c(F)c2)C(=O)O1", "strain": "926/98", "endpoint": "MIC", "value": "<0.12 µg/mL"}
{"SMILES": "CC[C@H]1OC(=O)[C@H](C)[C@@H](O[C@H]2C[C@@](C)(OC)[C@@H](OC(C)=O)[C@H](C)O2)[C@H](C)[C@@H](OC2O[C@H](C)C[C@H](N(C)C)[C@H]2OC(=O)NCCCCCCCCCCCCCCN(C)C)C(C)(O)C[C@@H](C)/C(=N\\OCCCC2CCCCC2)[C@H](C)[C@@H](O)[C@]1(C)O", "strain": "20066", "endpoint": "MIC", "value": "0.2 µg/mL"}
{"SMILES": "CC[C@H]1OC(=O)[C@H](C)[C@@H](OC2C[C@@](C)(OC)[C@@H](O)[C@H](C)O2)[C@H](C)[C@@H](O[C@@H]2O[C@H](C)C[C@H](N(C)C)[C@H]2O)C(C)(O)C[C@@H](C)/C(=N\\OCc2ccccc2)[C@H](C)[C@@H](O)[C@]1(C)O", "strain": "20066", "endpoint": "MIC", "value": "6.25 µg/mL"}
{"SMILES": "CN(C)CCCN1c2ccccc2Sc2ccc(Cl)cc21", "strain": "R 6550", "endpoint": "MIC", "value": "25 µg/mL"}
{"SMILES": "COc1c(N2CCNC(C)C2)c(F)cc2c(=O)c(C(=O)O)cn(C3CC3)c12", "strain": "31 strains", "endpoint": "MIC50", "value": "6.25 µg/mL"}
{"SMILES": "CC[C@H]1OC(=O)[C@H](C)[C@@H](O[C@H]2C[C@@](C)(OC)[C@@H](OC(C)=O)[C@H](C)O2)[C@H](C)[C@@H](OC2O[C@H](C)C[C@H](N(C)C)[C@H]2OC(N)=O)C(C)(O)C[C@@H](C)/C(=N\\OCCCC2CCCCC2)[C@H](C)[C@@H](O)[C@]1(C)O", "strain": "20066", "endpoint": "MIC", "value": "3.13 µg/mL"}
{"SMILES": "OCCN1CCN(CCC=C2c3ccccc3Sc3ccc(Cl)cc32)CC1", "strain": "R 8588", "endpoint": "MIC", "value": "25 µg/mL"}

The last 3 rows once more:

{"SMILES": "COc1c(N2CCNC(C)C2)c(F)cc2c(=O)c(C(=O)O)cn(C3CC3)c12", "strain": "31 strains", "endpoint": "MIC50", "value": "6.25 µg/mL"}
{"SMILES": "CC[C@H]1OC(=O)[C@H](C)[C@@H](O[C@H]2C[C@@](C)(OC)[C@@H](OC(C)=O)[C@H](C)O2)[C@H](C)[C@@H](OC2O[C@H](C)C[C@H](N(C)C)[C@H]2OC(N)=O)C(C)(O)C[C@@H](C)/C(=N\\OCCCC2CCCCC2)[C@H](C)[C@@H](O)[C@]1(C)O", "strain": "20066", "endpoint": "MIC", "value": "3.13 µg/mL"}
{"SMILES": "OCCN1CCN(CCC=C2c3ccccc3Sc3ccc(Cl)cc32)CC1", "strain": "R 8588", "endpoint": "MIC", "value": "25 µg/mL"}